Results of unrelated studies side by side (data: NIAID ChemDB).

Common to all: whole-cell or culture tests; species: Mycobacterium tuberculosis

MIC bound: limit read from a one-dose screen. Inhibition is in % at the dose shown (toxicity tests: loss of growth or viability). ECn: concentration that inhibits the pathogen or its effect by n%. Two numbers with a dash give a range or band. Blank or dashed fields: not listed here. Lines come from different laboratories, so protocols vary.

structure	dose	cell line	measure	conditions	changes	read by	strain	value
CC(N[C@H]1CS(=O)(=O)C[C@@H]1S(=O)(=O)c1ccc(F)cc1)c1ccccc1	-	-	MIC	-	-	resazurin	Clinical isolate	1 µg/mL
Nc1sc(-c2ccccc2)cc1C(=O)Nc1ccccc1	-	-	EC50	-	-	resazurin	H37Rv	108 µg/mL
O=C1c2cc(NCCO)c(NCCO)cc2C(=O)c2c(O)ccc(O)c21	-	-	MIC	-	-	-	H37Rv	>100 µg/mL
C[C@H]1COc2c(N3CCN(C)CC3)c(F)cc3c(=O)c(C(=O)O)cn1c23	-	-	MIC	-	-	-	CSU15	≤0.125 µg/mL
COc1ccc(N=Nc2c(O)c3cc(Cl)ccc3[nH]c2=O)cc1	6.25 µg/mL	-	inhibition	-	-	resazurin	H37Rv	55%
CC1CN(c2c(F)cc3c(=O)c(C(=O)O)cn(C4CC4)c3c2F)CC(C)N1	-	-	MIC	-	-	-	CSU23	≤0.125 µg/mL
CCOC(=O)c1c(NC(=O)c2c(F)c(F)c(F)c(F)c2F)sc2c1CCNC2=O	-	-	EC90	-	-	turbidity	ATCC35838	1.9 µM
O=C(O)c1ccc2ccccc2c1O	-	-	MIC	-	-	-	H37Rv	50 µg/mL
O=C(O)CCSC(=S)NCCNC(=S)SCCC(=O)O	6.25 µg/mL	-	inhibition	-	-	resazurin	H37Rv	2%
O=C1NC(=O)C(c2ccccc2)C(=O)N1	-	-	MIC	-	-	-	H37Rv	100 µg/mL
CCOC(=O)c1c(NC(=O)c2c(F)c(F)c(F)c(F)c2F)sc2c1CCOC2	-	-	MIC	-	gyrA mutant (D94N)	turbidity	H37Rv	0.33 µM
COC1CCC(OC)(C(=O)NN)O1.COC1CCC(OC)(C(=O)NN)O1	-	-	MIC bound	-	-	BACTEC	H37Rv	>12.5 µg/mL
CC(NNC(=O)c1ccncc1)c1ccc(Cl)c(Cl)c1	-	-	MIC	-	-	-	H37Rv (ethionamide-resistant)	>31.25 µg/mL
C/C=C(\C)c1cc(=O)c2c(C)cc3c(c2o1)[C@](OC)(OC(C)=O)c1c(O)c([C@H]2C[C@](C)(N(C)C)[C@H](OC(C)=O)[C@H](C)O2)cc([C@H]2C[C@@H](N(C)C)[C@H](OC(C)=O)[C@@H](C)O2)c1C3=O	12.8 µg/mL	-	inhibition	-	-	BACTEC	H37Rv	0%
CCOC(=O)c1ccc2c(c1)nc(-c1ccc(Cl)cc1)n2CCN1CCCC1=O	-	-	EC90	-	-	resazurin / fluorescence	H37Rv	>100 µM
O=[N+]([O-])c1c(Cl)cccc1-c1c[nH]cc1Cl	6.25 µg/mL	-	inhibition	-	-	BACTEC	H37Rv	32%
CN(C)C/C=C(/c1ccc(Br)cc1)c1ccc(-c2ccc(Br)cc2)cc1	-	-	MIC	-	-	-	ALI 258	8.5 µg/mL
CCN1CCc2c(sc(NC(=O)c3c(F)c(F)c(F)c(F)c3F)c2C(=O)NC)C1	-	-	EC50	-	gyrA mutant (D94N)	turbidity	H37Rv	2.1 µM
O=CNc1ccc(Oc2ccc(NC=O)cc2)cc1	-	-	MIC	-	-	-	H37Rv	25 µg/mL
Nc1nc2ccc(CSc3ccc(C(=O)NC(CCC(=O)O)C(=O)O)cc3)cc2c(=O)[nH]1	12.5 µg/mL	-	inhibition	-	-	BACTEC	H37Rv	22%
COC(=O)C1(C)Cc2ccccc2C(=O)O1	-	-	MIC	-	-	resazurin	Clinical isolate	4 µg/mL
CCNC(=O)c1c(NC(=O)c2c(F)c(F)c(F)c(F)c2F)sc2c1CCN(CC)C2	-	-	EC90	-	-	low oxygen	-	15 µM
C/C(=N\NC(=O)c1ccncc1)c1ccccc1	-	-	MIC	-	-	-	Thiacetazone-resistant	>3.2 µg/mL
CCOc1ccc(S(=O)(=O)[C@H]2CS(=O)(=O)C[C@@H]2NC2CCCC2)cc1	-	-	MIC	-	-	resazurin	18b	8 µg/mL
O/N=C/c1cc(O)ccc1O	-	-	MIC	-	-	-	H37Rv	>100 µg/mL
OCCN1CCN(CCO)CC1	-	-	MIC bound	-	-	BACTEC	H37Rv	>12.8 µg/mL
Cc1cccc(N=Nc2c(O)c3ccc([N+](=O)[O-])cc3[nH]c2=O)c1	6.25 µg/mL	-	inhibition	-	-	resazurin	H37Rv	19%
CN(C)C/C=C(/c1ccc(-c2ccc(Br)cc2)cc1)c1ccc([N+](=O)[O-])cc1	-	-	MIC	-	-	-	ALI 536	18.5 µg/mL
CCOC(=O)c1ccc2nc(C3C(c4ccccc4)C(=O)C3c3ccc(OC)cc3)[nH]c2c1	-	-	EC90	-	-	resazurin / fluorescence	H37Rv	>100 µM
CCOc1ccc(N=c2ccc3c(-c4c(Cl)ccc(Cl)c4C(=O)O)c4ccc(Nc5ccc(OCC)cc5S(=O)(=O)O)cc4oc-3c2)cc1	6.25 µg/mL	-	inhibition	-	-	resazurin	H37Rv	-5%
CCC(CC)C(=O)Nc1occ2c1CC(C)CC2	-	-	MIC	-	-	resazurin	Clinical isolate	8 µg/mL
COC(=O)NCC(=O)O	-	-	MIC	-	-	-	H37Rv	>100 µg/mL
COC1/C=C\C=C(/C)C(=O)Nc2cc3nc4cccc(Br)c4oc-3c(c2=O)CC(C)CC(OC)C(O)C(C)/C=C(\C)C1OC(N)=O	12.5 µg/mL	-	inhibition	-	-	BACTEC	H37Rv	96%
O=C(NNCc1ccccc1)c1ccncc1	-	-	MIC	-	-	-	H37Rv (isoniazid-resistant)	>31.25 µg/mL
C[C@@H]1CN(c2c(F)c(N)c3c(=O)c(C(=O)O)cn(C4CC4)c3c2F)C[C@H](C)N1	-	-	MIC	-	-	-	CSU18	≤0.125 µg/mL
Nc1cccc(O)c1	-	-	MIC	-	-	-	H37Rv	>100 µg/mL
CO[C@H]1/C=C/O[C@@]2(C)Oc3c(C)c(O)c4c(O)c(c5c(c4c3C2=O)NC2(CCN(CC(C)C)CC2)N=5)=NC(=O)/C(C)=C\C=C\[C@H](C)[C@H](O)[C@@H](C)[C@@H](O)[C@@H](C)[C@H](OC(C)=O)[C@@H]1C	-	-	MIC	-	-	-	2225 (rifampicin-resistant)	>2 µg/mL
O=C1c2ccccc2C2=Nc3ccccc3SC12O	-	-	MIC	-	-	resazurin	Clinical isolate	2 µg/mL
COc1c2ccoc2nc2c(OC)c(OCC(O)C(C)(C)O)ccc12	-	-	MIC bound	-	-	BACTEC	H37Rv	>12.8 µg/mL
O=C1CSC(=O)N1c1ccccc1	-	-	MIC	-	-	-	H37Rv	100 µg/mL
COc1ccc(CCc2cc(OC)c3ccccc3n2)cc1OC	-	-	MIC	-	-	-	MT3	155 µg/mL
CO[C@H]1/C=C/O[C@@]2(C)Oc3c(C)c(O)c4c(O)c(c5c(c4c3C2=O)NC2(CCN(CC(C)C)CC2)N=5)=NC(=O)/C(C)=C\C=C\[C@H](C)[C@H](O)[C@@H](C)[C@@H](O)[C@@H](C)[C@H](OC(C)=O)[C@@H]1C	-	-	MIC	-	-	-	Isolate 900241 drug-susceptible	0.063 µg/mL
Nc1ccc(S(=O)(=O)N(CCO)c2ccccc2)cc1	-	-	MIC	-	-	-	H37Rv	>100 µg/mL
O=c1[nH]nc(-c2ccc([N+](=O)[O-])o2)o1	-	-	MIC	-	-	BACTEC	H37Rv	≥12.5 µg/mL
CCN(CC)Cc1cc(Nc2ccnc3cc(Cl)ccc23)ccc1O	-	-	MIC	-	-	-	H37Rv	>100 µg/mL
O=C1C(=O)c2ccccc2C(O)=C1C(C1=C(O)c2ccccc2C(=O)C1=O)c1ccc(Cl)cc1Cl	12.8 µg/mL	-	inhibition	-	-	BACTEC	H37Rv	26%
CCOC(=O)c1ccc2c(c1)nc(-c1ccc(C(F)(F)F)cc1)n2CCN1CCCOC1	-	-	MIC	-	-	resazurin / fluorescence	H37Rv	100 µM
O=C(O)c1cn(C2CC2)c2c(F)c(N3CCSCC3)c(F)cc2c1=O	-	-	MIC	-	-	-	CSU27	2 µg/mL
CCOC(=O)c1ccc2c(c1)nc(-c1ccc(O)cc1)n2CCN1CCCOC1	-	-	MIC	-	-	resazurin / fluorescence	H37Rv	>100 µM
Cn1c(N)c(N=Nc2ccc(S(=O)(=O)Nc3ccccn3)cc2)c(=O)n(C)c1=O	12.5 µg/mL	-	inhibition	-	-	BACTEC	H37Rv	19%
CC(=O)c1ccc(N=Nc2c(O)c3ccc(Cl)cc3[nH]c2=O)cc1	6.25 µg/mL	-	inhibition	-	-	resazurin	H37Rv	6%
CN(C)CC=C(c1ccccc1)c1ccc(-c2ccc(Br)cc2)cc1	-	-	MIC	-	-	-	ALI 552	10 µg/mL
O=C(CCc1ccc(O)c(O)c1)c1ccc(O)c(O)c1O	-	-	MIC	-	-	BACTEC	H37Rv	≥12.5 µg/mL
CCOC(=O)c1ccc2c(c1)nc(-c1ccc(O)cc1)n2CCN1CCCC1=O	-	-	EC90	-	-	resazurin / fluorescence	H37Rv	>100 µM
Cc1c2c(Cc3ccccc3)nccc2c(C)c2c1c1ccccc1n2Cc1ccccc1	6.25 µg/mL	-	inhibition	-	-	resazurin	H37Rv	-30%
CC(NNC(=O)c1ccncc1)c1ccc(F)cc1	-	-	MIC	-	-	-	H37Rv (ethionamide-resistant)	>31.25 µg/mL
NC(=S)N/N=C/C1CNCCN1	-	-	MIC	-	-	BACTEC	H37Rv	≥12.5 µg/mL
CN(C)C/C=C(\c1ccc(I)cc1)c1ccc(-c2ccc(Br)cc2)cc1	-	-	MIC	-	-	-	H37Rv	19 µg/mL
CCOC(=O)c1ccc2c(c1)nc(-c1ccc(Br)cc1)n2CCN1CCCC1=O	-	-	EC90	-	-	resazurin / fluorescence	H37Rv	>100 µM
CC(=O)/C(=C\c1ccc(N(C)C)cc1)C(=O)c1ccccc1	-	-	MIC	-	-	-	H37Rv	>100 µg/mL
N#C[B][n+]1ccc(C(=O)NNCc2cccc(F)c2)cc1	-	-	MIC	-	-	-	H37Rv	0.8 µg/mL
CC[N+](CC)(CC)CCOC(=O)Nc1ccccc1.[I-]	-	-	MIC	-	-	-	H37Rv	>100 µg/mL
CC1=NN(c2ccccc2)C(=O)C1N=Nc1ccc(S(=O)(=O)Nc2nccc(C)n2)cc1	-	-	MIC bound	-	-	BACTEC	H37Rv	>12.5 µg/mL
COc1ccc(CCC2CCc3ccccc3N2C)cc1OC	-	-	MIC	-	-	-	MT4	>100 µg/mL
O=C(N/N=C/c1cccc(F)c1)c1ccncc1	-	Macrophages	EC90	inside macrophages	-	colony count	Erdman	0.011 µg/mL
CCOC(=O)c1ccc2nc(-c3ccc(C(=O)O)cc3)[nH]c2c1	-	-	MIC	-	-	resazurin / fluorescence	H37Rv	>100 µM
c1ccc(CNc2ccccc2)cc1	-	-	MIC	-	-	-	H37Rv	>100 µg/mL
O=C(NNCc1ccc(F)cc1)c1ccncc1	-	Macrophages	EC90	inside macrophages	-	colony count	Erdman	0.014 µg/mL
Cl.Nc1nccc(Nc2cc([As]=O)ccc2O)n1	-	-	MIC	-	-	-	H37Rv	>100 µg/mL
Cc1ccc(N=Nc2c(O)c3cccc(Cl)c3[nH]c2=O)cc1	-	-	MIC	-	-	resazurin	H37Rv	>6.25 µg/mL
O=C(NCCCCC(Br)C(=O)O)c1ccccc1	-	-	MIC	-	-	-	H37Rv	100 µg/mL
N#C[B][n+]1ccc(C(=O)NNCc2ccccc2)cc1	-	-	MIC	-	-	-	H37Rv	0.8 µg/mL
COc1ccc(CSC(=S)Nc2cc(Cl)c(Cl)cc2Cl)cc1	-	-	MIC	-	-	BACTEC	H37Rv	64 µg/mL
NNC(=O)c1ccncc1	-	-	MIC	-	-	-	H37Rv	0.08 µg/mL
CCOC(=O)c1ccc2c(c1)nc(-c1ccc([N+](=O)[O-])cc1)n2CCN1CCCOC1	-	-	EC90	-	-	resazurin / fluorescence	H37Rv	>100 µM
CC/C(=C(\c1ccccc1)c1ccc(OCCN(C)C)cc1)c1ccccc1	-	-	MIC	-	-	resazurin	Pyr-r	6.25–12.5 µg/mL
CCCn1c(-c2nnc(C(C)C)o2)cc2ccccc21	-	-	MIC	-	-	resazurin	18b	2 µg/mL
OC1c2ccccc2Oc2ccccc21	-	-	MIC	-	-	-	H37Rv	25 µg/mL
CCN1CCc2c(sc(NC(=O)c3c(F)c(F)c(F)c(F)c3F)c2C#N)C1	-	-	MIC	-	gyrA mutant (D94N)	turbidity	H37Rv	18 µM
CNC(=O)NC(C)=O	-	-	MIC	-	-	-	H37Rv	>100 µg/mL
CN(C)C/C=C(/c1ccccc1)c1ccc(-c2ccc(Br)cc2)cc1	-	-	MIC	-	-	-	ALI 3342	10 µg/mL
C/C(=N\NC(=O)c1ccncc1)c1ccc(F)cc1	-	-	MIC	-	-	-	H37Rv	0.05 µg/mL
Cc1cccc(N=Nc2c(O)c3ccc(C)cc3[nH]c2=O)c1	6.25 µg/mL	-	inhibition	-	-	resazurin	H37Rv	76%
Cc1c(C(=O)C/C(=N/O)C(=O)Nc2cc(Cl)c(Cl)cc2Cl)[n+](=O)c2ccccc2n1[O-]	6.25 µg/mL	-	inhibition	-	-	resazurin	H37Rv	63%
CCOC(=O)C(=CNc1cccc(Cl)c1)C(=O)OCC	-	-	MIC	-	-	-	H37Rv	>100 µg/mL
N#Cc1c(NC(=O)c2c(F)c(F)c(F)c(F)c2F)sc2c1CCOC2	-	-	MIC	-	rpoB S522L mutant	turbidity	H37Rv	10 µM
O=C(c1ccccc1)c1ccc(Br)cc1	-	-	MIC	-	-	-	H37Rv	>100 µg/mL
Cc1cccc(C)c1N=Nc1c(O)c2cccc([N+](=O)[O-])c2[nH]c1=O	6.25 µg/mL	-	inhibition	-	-	resazurin	H37Rv	22%
Cc1ccc2ccccc2c1[N+](=O)[O-]	-	-	MIC	-	-	-	H37Rv	50 µg/mL
NC(=S)[S-].[NH4+]	-	-	MIC bound	-	-	BACTEC	H37Rv	>12.5 µg/mL
Nc1sc2c(c1C(=O)Nc1ccccc1)CCCC2	-	-	MIC	-	-	resazurin	H37Rv	>100 µg/mL

Again, the opening 5 rows:

structure | dose | cell line | measure | conditions | changes | read by | strain | value
CC(N[C@H]1CS(=O)(=O)C[C@@H]1S(=O)(=O)c1ccc(F)cc1)c1ccccc1 | - | - | MIC | - | - | resazurin | Clinical isolate | 1 µg/mL
Nc1sc(-c2ccccc2)cc1C(=O)Nc1ccccc1 | - | - | EC50 | - | - | resazurin | H37Rv | 108 µg/mL
O=C1c2cc(NCCO)c(NCCO)cc2C(=O)c2c(O)ccc(O)c21 | - | - | MIC | - | - | - | H37Rv | >100 µg/mL
C[C@H]1COc2c(N3CCN(C)CC3)c(F)cc3c(=O)c(C(=O)O)cn1c23 | - | - | MIC | - | - | - | CSU15 | ≤0.125 µg/mL
COc1ccc(N=Nc2c(O)c3cc(Cl)ccc3[nH]c2=O)cc1 | 6.25 µg/mL | - | inhibition | - | - | resazurin | H37Rv | 55%